Measured values reported in patent US20050171215A1, “Germicidal compositions containing halogenated phthalaldehyes, and methods of using such compositions for disinfection or sterilization” (Ethicon, Inc., priority 2004, published 2005).

Assay: staining test on pigskin
Design: species or system pig; key to Staining: +: tends to stain certain surfaces; −: do not stain
Conditions: for Staining Results: about 10 μL on pigskin, about 24 hours, room temperature; for Staining: summary Table 14

For `O=Cc1cccc(C=O)c1` [IPA, isophthalaldehyde, reference compound], the “Staining Results” value (0.20%) was “Non-Staining” and the Staining was “−”.

For `O=Cc1ccc(C=O)cc1` [TPA, terephthalaldehyde, reference compound], the Staining was “−”.

For `O=Cc1ccccc1C=O` [OPA, phthalaldehyde, reference compound], the “Staining Results” value (0.14%) was “Dark Staining” and the Staining was “+”.
